# From PMC5862516 (PLoS Neglected Tropical Diseases, 2018)
# System: SOSV minigenome
# Details: CC50 divided by EC50
row,Structure (SMILES),Minigenome Screen SI
1,Nc1ccn([C@@H]2O[C@H](CO)[C@@H](O)[C@H]2F)c(=O)n1 [2′-deoxy-2′-fluorocytidine],> 38
2,O=c1[nH]c(=O)n([C@@H]2O[C@H](CO)[C@@H](O)[C@H]2O)cc1F [5-fluorouridine],> 172
3,O=c1cnn([C@@H]2O[C@H](CO)[C@@H](O)[C@H]2O)c(=O)[nH]1 [6-azauridine],> 9
4,COc1c(C)c2c(c(O)c1C/C=C(\C)CCC(=O)O)C(=O)OC2 [Mycophenolic acid],7
